Compound potency records, mixed from different reports. Data source: NIAID ChemDB in PubChem.

All rows: whole-cell or culture tests; species: Toxoplasma gondii; read-out: EC50

ECn: concentration that inhibits the pathogen or its effect by n%.

smiles,strain,cells,read by,value
CCOC(=O)C1C(c2ccc(F)cc2)CC(c2ccccc2)=CC12NCCN2,RH,HFF,,0.0097 µM
Cc1c(O)cccc1C(=O)N[C@@H](CSc1ccccc1)[C@H](O)CN1C[C@H]2CCCC[C@H]2C[C@H]1C(=O)NC(C)(C)C,RH,MRC-5,,4 µg/mL
CCOC(=O)C1C(c2ccc(OC)cc2)CC(c2ccc(Cl)cc2)=CC12NCCN2,RH,HFF,,0.0097 µM
CCCCCCCN(CC1=C(O)c2ccccc2C(=O)C1=O)Cc1ccccc1,ATO,,,1.1 µM
CCNC(=O)C1=C(C)[C@@H]2CC[C@@H](C)[C@@H]3CC[C@]4(C)OO[C@@]23[C@H](O1)O4,,HFF,β-galactosidase,4.4 µM
CCOC(=O)C1C(c2ccc(Cl)cc2)CC(c2ccc(OC)cc2)=CC12NCCN2,RH,HFF,,0.0097 µM
COc1c(N2C[C@@H]3C(N)[C@@H]3C2)c(F)cc2c(=O)c(C(=O)O)cn(C3CC3)c12,RH,MRC-5,,2.1 µM
CC[C@]1(C)NC(=O)[C@H](CCCCCC(=O)[C@H](C)O)NC(=O)[C@H]2C[C@H](C)CN2C(=O)C(Cc2ccccc2)NC1=O,RH,HFF,,0.0097 µM
Nc1ccc(S(=O)(=O)Nc2ncccn2)cc1,,,,<2 µg/mL
COc1c(N2C[C@@H]3C(CN)[C@@H]3C2)c(F)cc2c(=O)c(C(=O)O)cn(-c3ccc(F)cc3F)c12,RH,MRC-5,,37 µM
O=C1C2=C(C(=O)c3ccccc31)[C@H]1Oc3ccccc3[C@H]1CO2,,Fibroblastic LLC-MK2,,2.5 µM
CCCN(CCC)c1c([N+](=O)[O-])cc(C(F)(F)F)cc1[N+](=O)[O-],,Fibroblast,,0.3 µM
CCOC(=O)C1C(c2ccc(C)cc2)CC(c2ccccc2)=CC12NCCN2,RH,HFF,,0.0097 µM
CO[C@@H]1C(=O)OC[C@H](C)[C@H](C)/C=C(\C)C[C@H](C)C(=O)N[C@@H](C)C(=O)N(C)[C@H](Cc2c[nH]c3ccccc23)C(=O)N[C@H]1c1ccc(C(N)=O)cc1,,Human foreskin fibroblasts,,≥45 µM
CC[C@H]1OC(=O)[C@H](C)[C@@H](O[C@H]2C[C@@](C)(OC)[C@@H](O)[C@H](C)O2)[C@H](C)[C@@H](O[C@@H]2O[C@H](C)C[C@H](N(C)C)[C@H]2O)[C@](C)(O)C[C@@H](C)/C(=N\OCOCCOC)[C@H](C)[C@@H](O)[C@]1(C)O,RH,MRC-5,,1.34 µg/mL
CCc1nc(N)nc(N)c1-c1ccc(Cl)cc1,,,MTS,19.7 µM
C=C(C)CN(CC)c1c([N+](=O)[O-])cc(C(F)(F)F)cc1[N+](=O)[O-],Trifluralin-resistant,,,0.7 µM
CC1=C(C2=NCCS2)O[C@@H]2O[C@]3(C)CC[C@H]4[C@H](C)CC[C@@H]1[C@@]24OO3,,HFF,β-galactosidase,1.7 µM

The first 3 rows once more:

smiles	strain	cells	read by	value
CCOC(=O)C1C(c2ccc(F)cc2)CC(c2ccccc2)=CC12NCCN2	RH	HFF		0.0097 µM
Cc1c(O)cccc1C(=O)N[C@@H](CSc1ccccc1)[C@H](O)CN1C[C@H]2CCCC[C@H]2C[C@H]1C(=O)NC(C)(C)C	RH	MRC-5		4 µg/mL
CCOC(=O)C1C(c2ccc(OC)cc2)CC(c2ccc(Cl)cc2)=CC12NCCN2	RH	HFF		0.0097 µM

Blank or dashed fields: not listed here. Neighbouring rows are from separate reports.